The results in this text go back to US20250382354A1.

Experiment in all cases: cell-based or functional assay
The target of test [1] is C-terminally truncated SARS-CoV-2 S protein, Gamma (SARS-CoV-2 Gamma).
Test [2] deals with C-terminally truncated SARS-CoV-2 S protein, Omicron BA.2.75 (SARS-CoV-2 Omicron BA.2.75).
For test [3], the target named is C-terminally truncated SARS-CoV-2 S protein, Delta (SARS-CoV-2 Delta).
Test [4] addresses C-terminally truncated SARS-CoV-2 S protein, Omicron BA.2.75.2 (SARS-CoV-2 Omicron BA.2.75.2).
For test [5], the target named is C-terminally truncated SARS-CoV-2 S protein, Omicron BA.2 (SARS-CoV-2 Omicron BA.2).
Test [6] addresses C-terminally truncated SARS-CoV-2 S protein, Beta (SARS-CoV-2 Beta).
Test [7] addresses C-terminally truncated SARS-CoV-2 S protein, Alpha (SARS-CoV-2 Alpha).
Test [8] has as its target C-terminally truncated SARS-CoV-2 S protein, Omicron BA.1 (SARS-CoV-2 Omicron BA.1).

CV3-25 (antibody) registered a Gamma Pseudovirus IC50 in test [1] of 147 ng/mL. For the same substance, the Omicron BA.2.75 Pseudovirus IC50 in test [2] is 1680 ng/mL. Also, the Delta Pseudovirus IC50 in test [3] was 497 ng/mL. The substance further showed an Omicron BA.2.75.2 Pseudovirus IC50 in test [4] of 2470 ng/mL. Further, the Omicron BA.2 Pseudovirus IC50 in test [5] amounted to 806 ng/mL. Besides, in test [6], the Beta Pseudovirus IC50 is 364 ng/mL. Further, the Alpha Pseudovirus IC50 in test [7] is 468 ng/mL. This substance also showed an Omicron BA.1 Pseudovirus IC50 in test [8] of 1330 ng/mL.
Take S2P6 (antibody): the Gamma Pseudovirus IC50 in test [1] was found to be 471 ng/mL. Further, in test [2], the Omicron BA.2.75 Pseudovirus IC50 was 69000 ng/mL. In addition, the Omicron BA.2.75.2 Pseudovirus IC50 in test [4] was 59900 ng/mL. For the same substance, in test [5], the Omicron BA.2 Pseudovirus IC50 was 49300 ng/mL. The substance also registered an Omicron BA.1 Pseudovirus IC50 in test [8] of 29400 ng/mL.
